Patent US20110118274A1, “PROTEASOME INHIBITORS AND THEIR USE IN TREATING PATHOGEN INFECTION AND CANCER” (CORNELL RESEARCH FOUNDATION, INC., priority 2007, published 2011)

Chains of the proteins cited; added tags and fusions are not shown. A line that says so, or that is headed by a name, gives the form on record, which may keep a tag or linker. Residues count along the entry.
UniProt P9WHT9, 58-291 limits assumed: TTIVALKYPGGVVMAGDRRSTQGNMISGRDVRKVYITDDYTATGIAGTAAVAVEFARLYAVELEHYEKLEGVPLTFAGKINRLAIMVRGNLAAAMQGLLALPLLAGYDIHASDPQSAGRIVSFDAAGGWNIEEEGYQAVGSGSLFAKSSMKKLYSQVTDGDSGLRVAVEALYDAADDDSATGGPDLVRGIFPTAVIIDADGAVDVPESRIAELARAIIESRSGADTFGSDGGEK
UniProt P9WHU1, 10-248 with tags or gaps partner limits assumed: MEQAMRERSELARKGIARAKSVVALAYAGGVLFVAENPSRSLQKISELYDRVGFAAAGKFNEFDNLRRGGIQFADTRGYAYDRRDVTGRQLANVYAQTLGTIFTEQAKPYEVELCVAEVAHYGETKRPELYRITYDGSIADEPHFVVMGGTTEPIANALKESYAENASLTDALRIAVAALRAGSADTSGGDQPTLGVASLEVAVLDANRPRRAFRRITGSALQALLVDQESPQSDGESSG

Assays:
Mtb PrcAB-OG = Mtb PrcAB-OG (Mycobacterium tuberculosis, UniProt P9WHT9); conditions: for kinact/K: Mtb PrcAB-OG, corrected for substrate competition, error propagated; for KI (inactivation): read-out: K (concentration of inactivator that yields a rate of inactivation equal to ½ kinact)
M. bovis BCG = assay: Mycobactericidal activity against BCG (CFU); conditions: alone and with DETA-NO 50 μM, 4 days
Procedure: FIGS. 5A-B illustrate the killing of mycobacteria by oxathiazol-2-ones in synergy with NO. FIG. 5A is a graph of the killing of BCG by GL5, GL1, and GL3 was concentration-dependent and augmented following exposure to a sub-lethal concentration of NO donated by DETA-NO. BCG at an initial number of 2.5×10^6 CFU/mL (arrow) in Sauton's medium was treated with (open bars) and without (solid bars) DETA-NO (50 μM) and with the indicated oxathiazol-2-one at 10, 25, or 50 μM for four days. Bacteria were then serially diluted in saline and plated for enumeration of surviving CFU. DETA-NO at this concentration prevented replication but caused no killing. […] Mtb was exposed to 100 μM DETANO (open bars) or 100 μM DETA (solid bars) overnight prior to addition of GL5 at 25 μM or 50 μM or to GL6 (50 μM) as a control. Surviving bacteria were plated 4 days after addition of oxathiazol-2-one. Initial inocula are indicated. DETA-NO at this concentration prevented replication but caused little or no killing. The limit of detection was 4 log10 CFU/ml […] Mid-log phase cultures (A560 ? 0.8-1.0) were diluted to 0.05-0.1 (A580) and quantified by CFU. Mycobacteria were incubated under indicated conditions in 96 well plates in 200 μl, then serially diluted in PBS with 0.02% Tween 80, pH 7.2 and plated for CFU on Middlebrook 7H11 agar plates with 10% Middlebrook OADC enrichment. […]

Mtb proteasome = Mtb proteasome (Mycobacterium tuberculosis, UniProt P9WHT9)

SMILES	Hill coefficient (Mtb PrcAB-OG) (Mtb PrcAB-OG)	kinact (Mtb PrcAB-OG) [s⁻¹]	kinact/K (Mtb PrcAB-OG)	KI (inactivation) (Mtb PrcAB-OG) [µM]	killing of BCG (M. bovis BCG)	activity recovered after dilution (Mtb proteasome)	effect of substrate concentration on rate of inactivation (Mtb PrcAB-OG)	activity recovered after dialysis (Mtb proteasome)
O=c1oc(-c2cc3ccccc3s2)ns1	2.3	0.018 ± 0.001	1250 ± 111^b M^−1s^−1	14.4	able to kill BCG	no activity was recovered		
O=c1oc(-c2cc3c(s2)CCCC3)ns1	1.9	0.020 ± 0.002	2898 ± 413^b M^−1s^−1	6.9	able to kill BCG		Increasing substrate concentration reduced the rate of proteasome inactivation	did not restore the activity
